Experimental data reported in patent US20240109955A1 (published 2024).

B1: MX828 + 829 (other)
chain 1: QTVVTQEPSFSVSPGGTVTLTCGLSSGSVSTAYFPSWYQQTPGQAPRTLIYGTNTRSSGVPDRFSGSILGNKAALTITGAQADDESDYYCVLYMGRGIVVFGGGTKLTVLGGSSGEIVLTQSPGTLSLSPGERATLSCRASQSVSSSYLAWYQQKPGQAPRLLIYSASSRATGIPDRFSGSGSGTDFTLTISRLEPEDFAVYFCQQYVGLTGWTFGQGTKVEIKGGGGSGGSGSGGGGSASGSGQMQLVQSGPEVKKPGTSVKVSCKASGFTFTSSAVQWVRQRQRLEWIGWIVVGSGNTNYAQKFQERVTITRDMSTSTAYMELSSLRSEDTAVYYCAAPNCSNVVCYDGFDIWGQGTMVTVSSGGSSGQVQLVESGGGVVQPGRSLRLSCAASGFTLSSYGMHWVRQAPGKGLEWVAVISYDGSNKYYVDSVKGRFTISRDNSKNTLYLQMNSLRAEDTAVYYCRWAYWELLPDYYYGMDVWGQGTTVTVSSASGGSGDKTHTCPPCPAPELLGGPSVFLFPPKPKDTLMISRTPEVTCVVVDVSHEDPEVKFNWYVDGVEVHNAKTKPREEQYNSYVVSVLTVLHQDWLNGKEYKCKVSNKALPAPIEKTISKAKGQPREPQVYTLPPSRDELTKNQVSLTCLVKGFYPSDIAVEWESNGQPENNYKTTPPVLDSDGSFFKKLTVDKSRWQQGNVFSCSVLHEALHSHYTQKSLSLSPG
chain 2: DIQMTQSPSSVSASVGDRVIITCRASQGISSWLAWYQQKPGKAPKVLIYDASSLQSGVPSRFSGSGYGTDFTLTISSLQPEDSATYYCQQAKSFPITFGQGTRLEIKGGSSGEIVLTQSPGTLSLSPGERATLSCRASQSVSSSYLAWYQQKPGQAPRLLIYSASSRATGIPDRFSGSGSGTDFTLTISRLEPEDFAVYFCQQYVGLTGWTFGQGTKVEIKGGGGSGGSGSGGGGSASGSGQMQLVQSGPEVKKPGTSVKVSCKASGFTFTSSAVQWVRQRQRLEWIGWIVVGSGNTNYAQKFQERVTITRDMSTSTAYMELSSLRSEDTAVYYCAAPNCSNVVCYDGFDIWGQGTMVTVSSGGSSGQVQLVESGGGVVQPGRSLRLSCAASGFTFSSYAFHWVRQAPGKGLEWVAVISYDGSNQYYADSVKGRFTISRDNSKNTLYLQMNSLRADDTAVYYCARDLAIAVAGTWHYYNGMDVWGQGTTVTVSSASGGSGDKTHTCPPCPAPELLGGPSVFLFPPKPKDTLMISRTPEVTCVVVDVSHEDPEVKFNWYVDGVEVHNAKTKPREEQYNSYVVSVLTVLHQDWLNGKEYKCKVSNKALPAPIEKTISKAKGQPREPQVYTLPPSRDELTKNQVSLTCLVKGFYPSDIAVEWESNGQPENNYKTTPPVLDSDGSFFKKLTVDKSRWQQGNVFSCSVLHEALHSHYTQKSLSLSPG
B2: MX831 (bispecific antibody)
chain: DIQMTQSPSSVSASVGDRVIITCRASQGISSWLAWYQQKPGKAPKVLIYDASSLQSGVPSRFSGSGYGTDFTLTISSLQPEDSATYYCQQAKSFPITFGQGTRLEIKGGSSGEIVLTQSPGTLSLSPGERATLSCRASQSVSSSYLAWYQQKPGQAPRLLIYSASSRATGIPDRFSGSGSGTDFTLTISRLEPEDFAVYFCQQYGGLTGWTFGQGTKVEIKGGGGSGGSGSGGGGSASGSGQMQLVQSGPEVKKPGTSVKVSCKASGFTFTSSAVQWVRQRQRLEWIGWIVVGSGNTNYAQKFQERVTITRDMSTSTAYMELSSLRSEDTAVYYCAAPNCSNVVCYDGFDIWGQGTMVTVSSGGSSGQVQLVESGGGVVQPGRSLRLSCAASGFTFSSYAFHWVRQAPGKGLEWVAVISYDGSNQYYADSVKGRFTISRDNSKNTLYLQMNSLRADDTAVYYCARDLAIAVAGTWHYYNGMDVWGQGTTVTVSSASGGSGDKTHTCPPCPAPELLGGPSVFLFPPKPKDTLMISRTPEVTCVVVDVSHEDPEVKFNWYVDGVEVHNAKTKPREEQYNSYVVSVLTVLHQDWLNGKEYKCKVSNKALPAPIEKTISKAKGQPREPQVYTLPPSRDELTKNQVSLTCLVKGFYPSDIAVEWESNGQPENNYKTTPPVLDSDGSFFKKLTVDKSRWQQGNVFSCSVLHEALHSHYTQKSLSLSPG
B3: MX830 + 831 (other)
chain 1: QTVVTQEPSFSVSPGGTVTLTCGLSSGSVSTAYFPSWYQQTPGQAPRTLIYGTNTRSSGVPDRFSGSILGNKAALTITGAQADDESDYYCVLYMGRGIVVFGGGTKLTVLGGSSGEIVLTQSPGTLSLSPGERATLSCRASQSVSSSYLAWYQQKPGQAPRLLIYSASSRATGIPDRFSGSGSGTDFTLTISRLEPEDFAVYFCQQYGGLTGWTFGQGTKVEIKGGGGSGGSGSGGGGSASGSGQMQLVQSGPEVKKPGTSVKVSCKASGFTFTSSAVQWVRQRQRLEWIGWIVVGSGNTNYAQKFQERVTITRDMSTSTAYMELSSLRSEDTAVYYCAAPNCSNVVCYDGFDIWGQGTMVTVSSGGSSGQVQLVESGGGVVQPGRSLRLSCAASGFTLSSYGMHWVRQAPGKGLEWVAVISYDGSNKYYVDSVKGRFTISRDNSKNTLYLQMNSLRAEDTAVYYCRWAYWELLPDYYYGMDVWGQGTTVTVSSASGGSGDKTHTCPPCPAPELLGGPSVFLFPPKPKDTLMISRTPEVTCVVVDVSHEDPEVKFNWYVDGVEVHNAKTKPREEQYNSYVVSVLTVLHQDWLNGKEYKCKVSNKALPAPIEKTISKAKGQPREPQVYTLPPSRDELTKNQVSLTCLVKGFYPSDIAVEWESNGQPENNYKTTPPVLDSDGSFFKKLTVDKSRWQQGNVFSCSVLHEALHSHYTQKSLSLSPG
chain 2: DIQMTQSPSSVSASVGDRVIITCRASQGISSWLAWYQQKPGKAPKVLIYDASSLQSGVPSRFSGSGYGTDFTLTISSLQPEDSATYYCQQAKSFPITFGQGTRLEIKGGSSGEIVLTQSPGTLSLSPGERATLSCRASQSVSSSYLAWYQQKPGQAPRLLIYSASSRATGIPDRFSGSGSGTDFTLTISRLEPEDFAVYFCQQYGGLTGWTFGQGTKVEIKGGGGSGGSGSGGGGSASGSGQMQLVQSGPEVKKPGTSVKVSCKASGFTFTSSAVQWVRQRQRLEWIGWIVVGSGNTNYAQKFQERVTITRDMSTSTAYMELSSLRSEDTAVYYCAAPNCSNVVCYDGFDIWGQGTMVTVSSGGSSGQVQLVESGGGVVQPGRSLRLSCAASGFTFSSYAFHWVRQAPGKGLEWVAVISYDGSNQYYADSVKGRFTISRDNSKNTLYLQMNSLRADDTAVYYCARDLAIAVAGTWHYYNGMDVWGQGTTVTVSSASGGSGDKTHTCPPCPAPELLGGPSVFLFPPKPKDTLMISRTPEVTCVVVDVSHEDPEVKFNWYVDGVEVHNAKTKPREEQYNSYVVSVLTVLHQDWLNGKEYKCKVSNKALPAPIEKTISKAKGQPREPQVYTLPPSRDELTKNQVSLTCLVKGFYPSDIAVEWESNGQPENNYKTTPPVLDSDGSFFKKLTVDKSRWQQGNVFSCSVLHEALHSHYTQKSLSLSPG
B4: MX830 (bispecific antibody)
chain: QTVVTQEPSFSVSPGGTVTLTCGLSSGSVSTAYFPSWYQQTPGQAPRTLIYGTNTRSSGVPDRFSGSILGNKAALTITGAQADDESDYYCVLYMGRGIVVFGGGTKLTVLGGSSGEIVLTQSPGTLSLSPGERATLSCRASQSVSSSYLAWYQQKPGQAPRLLIYSASSRATGIPDRFSGSGSGTDFTLTISRLEPEDFAVYFCQQYGGLTGWTFGQGTKVEIKGGGGSGGSGSGGGGSASGSGQMQLVQSGPEVKKPGTSVKVSCKASGFTFTSSAVQWVRQRQRLEWIGWIVVGSGNTNYAQKFQERVTITRDMSTSTAYMELSSLRSEDTAVYYCAAPNCSNVVCYDGFDIWGQGTMVTVSSGGSSGQVQLVESGGGVVQPGRSLRLSCAASGFTLSSYGMHWVRQAPGKGLEWVAVISYDGSNKYYVDSVKGRFTISRDNSKNTLYLQMNSLRAEDTAVYYCRWAYWELLPDYYYGMDVWGQGTTVTVSSASGGSGDKTHTCPPCPAPELLGGPSVFLFPPKPKDTLMISRTPEVTCVVVDVSHEDPEVKFNWYVDGVEVHNAKTKPREEQYNSYVVSVLTVLHQDWLNGKEYKCKVSNKALPAPIEKTISKAKGQPREPQVYTLPPSRDELTKNQVSLTCLVKGFYPSDIAVEWESNGQPENNYKTTPPVLDSDGSFFKKLTVDKSRWQQGNVFSCSVLHEALHSHYTQKSLSLSPG
B5: A23-58.1HC/58.1LC_93VGLTG (antibody, V domains shown)
VH: QMQLVQSGPEVKKPGTSVKVSCKASGFTFTSSAVQWVRQRQRLEWIGWIVVGSGNTNYAQKFQERVTITRDMSTSTAYMELSSLRSEDTAVYYCAAPNCSNVVCYDGFDIWGQGTMVTVSS
VL: EIVLTQSPGTLSLSPGERATLSCRASQSVSSSYLAWYQQKPGQAPRLLIYSASSRATGIPDRFSGSGSGTDFTLTISRLEPEDFAVYFCQQYVGLTGWTFGQGTKVEIK
B6: MX1042 (bispecific antibody)
chain: DTVMTQSPLSLPVTPGEPASISCRSSQSLLNSNGYNYLDWYVQKPGQSPQLLIYLGSNRASGVPDRFSGSGSGTDFTLKISRVEAEDVGVYYCMQPLQTPLFTFGPGTKVEIKGGSSGEIVLTQSPGTLSLSPGETATLSCRASQSFSSDLAWYQQKPGQAPRLLIYGASSRATGIPDRFSGSGSGTDFTLTISRLEPADFAVYYCQQYGSSPPVTFGGGTKVEIKGGGGSGGSGSGGGGSASGSGEVQLVESGGGLIQPGGSLRLSCAASGVIVSYNYMNWVRQAPGKGLEWVSVIYSGGSTFYADSVRGRFTISRDNSKNTLYLQMNSLRAEDTAVYYCARDLGPAGAFDIWGLGTMVTVSSGGSSGQVTLRESGPALVKPTQTLTLTCTFSGFSLSTRGVCVSWIRQPPGKALEWLAFIDWDDDKYYNTSLKTRLTISKDTSKNQVVLTMTNVHPVDTATYYCARISSHHGSSWCTTFDYWGQGALVTVSAASGGSGDKTHTCPPCPAPELLGGPSVFLFPPKPKDTLMISRTPEVTCVVVDVSHEDPEVKFNWYVDGVEVHNAKTKPREEQYNSYVVSVLTVLHQDWLNGKEYKCKVSNKALPAPIEKTISKAKGQPREPQVYTLPPSRDELTKNQVSLTCLVKGFYPSDIAVEWESNGQPENNYKTTPPVLDSDGSFFKKLTVDKSRWQQGNVFSCSVLHEALHSHYTQKSLSLSPG

Key:
Assay in all cases: cell-based or functional assay
[1] = molecular target: SARS-CoV-2 Omicron BA.1 spike protein (SARS-CoV-2, UniProt P0DTC2 14-1273)
[2] = molecular target: SARS-CoV-2 Omicron BA.4/5 spike protein (F486V) (SARS-CoV-2, UniProt P0DTC2 14-1273)
[3] = molecular target: SARS-CoV-2 spike protein, Omicron sublineage XBB (SARS-CoV-2, UniProt P0DTC2 14-1273)
[4] = molecular target: SARS-CoV-2 spike protein, Omicron sublineage XBB1.5 (SARS-CoV-2, UniProt P0DTC2 14-1273)

Binder | IC50, pseudovirus neutralization [1] [nM] | IC80, pseudovirus neutralization [1] [nM] | IC50, pseudovirus neutralization [2] [nM] | IC80, pseudovirus neutralization [2] [nM] | IC50, pseudovirus neutralization [3] [nM] | IC80, pseudovirus neutralization [3] [nM] | IC50, pseudovirus neutralization [4] [nM] | IC80, pseudovirus neutralization [4] [nM]
B1 | 2 | 4 | 2 | 6 | – | – | – | –
B2 | 7 | 25 | 2 | 4 | – | – | – | –
B3 | 2 | 3 | 2 | 4 | – | – | – | –
B4 | 1 | 3 | 260 | 1560 | – | – | – | –
B5 | 1 | 9 | 4 | 21 | – | – | – | –
B6 | – | – | – | – | 7.55 | 16.5 | 41.8 | 81.5
